Compound potency records, mixed from different reports. Data source: NIAID ChemDB in PubChem.

Common to all: tests in culture; organism: Mycobacterium tuberculosis

a–b is a range or a potency band. Blank or dashed fields: not listed here. Inhibition is in % at the dose shown (toxicity tests: loss of growth or viability). Lines come from different laboratories, so protocols vary. ECn: concentration that inhibits the pathogen or its effect by n%. MIC bound comes from a single tested concentration.

compound	strain or isolate	method	measure	cells	tested at	result
CN(C(N)=S)c1cccc2ccccc12	H37Rv	-	MIC	-	-	100 µg/mL
COC(=O)[C@]1(C)CCC[C@]2(C)c3ccc(C(C)C)cc3C(=O)[C@@H](Br)[C@@]12C	H37Rv	BACTEC	MIC bound	-	-	>12.5 µg/mL
O=C(/C=C/c1ccccc1I)c1ccccc1O	H37Rv	-	EC50	-	-	>12.5 µg/mL
O=C(O)c1cccc(O)c1	H37Rv	-	MIC	-	-	>100 µg/mL
Nc1ncnc2c1ncn2C1OC(C(O)CO)C(O)C1N	H37Rv	BACTEC	inhibition	-	12.5 µg/mL	6%
NCC[C@H](O)C(=O)N[C@@H]1C[C@H](N)[C@@H](O[C@H]2O[C@H](CN)[C@@H](O)[C@H](O)[C@H]2O)[C@H](O)[C@H]1O[C@H]1O[C@H](CO)[C@@H](O)[C@H](N)[C@H]1O	7S	-	MIC	-	-	2.5 µg/mL
CC(=O)Oc1ccc([C@@H]2CC(=O)c3c(cc(OC(C)=O)c(-c4c(OC(C)=O)cc5c(c4OC(C)=O)C(=O)C[C@@H](c4ccc(OC(C)=O)cc4)O5)c3OC(C)=O)O2)cc1	H37Rv	-	EC50	-	-	>12.5 µg/mL
Cc1ccc(-n2c(=O)oc3ccc(F)cc3c2=O)cc1	CNCTC MY331/88	-	MIC	-	-	16 µM
CCC(C)NC(=O)C1C2CC3OC(=O)C1C3C2	H37Rv	BACTEC	MIC bound	-	-	>12.5 µg/mL
CCCCC(CC)CN1CN(CC(CC)CCCC)CC(C)(NCCNCc2ccco2)C1	-	-	MIC	-	-	12.5 µM
CCN(CC)C(=S)S	H37Rv	-	MIC	-	-	50 µg/mL
CC1(C)CC2CC(C)(CN2CCNCC23CC4CC(CC(C4)C2)C3)C1	-	-	MIC	-	-	9.4 µM
COC1(CO)C(=O)N(C)CC(=O)N1C	EMB-R	-	MIC	-	-	6.3 µg/mL
C[C@@H]1[C@H]2C[C@@H](C[C@H]1NCCNCCCCc1ccccc1)C2(C)C	-	-	MIC	-	-	50 µM
CCOc1ccc2c(N/N=C/c3ccc(N(CC)CC)cc3)ccnc2c1	H37Rv	-	MIC	VERO	-	6.25 µg/mL
O=C1N(c2nncs2)CCN1[N+](=O)[O-]	PAS-R	-	MIC	-	-	3.1 µg/mL
CN(C)c1ccc(O)c2c1C[C@H]1C[C@H]3[C@H](N(C)C)C(=O)C(C(N)=O)=C(O)[C@@]3(O)C(=O)C1=C2O	H37Rv	-	Median MIC	-	-	4 µg/mL
O=C(NCCN1CCN2Cc3[nH]c4ccccc4c3CC2C1)c1ccc(Cl)cc1	H37Rv	resazurin	inhibition	-	6.25 µg/mL	61%
N[C@@H]1CONC1=O	H37Ra	-	Mean MIC	-	-	20 µg/mL
CCCCCNCCNCCc1ccccc1F	-	-	MIC	-	-	25 µM
O=c1oc2ccc([N+](=O)[O-])cc2c(=O)n1-c1cccc(Cl)c1	CNCTC MY331/88	-	MIC	-	-	31 µM
CN1c2ccccc2CCC1CCc1ccc2c(c1)OCO2	MT7	-	MIC	-	-	50 µg/mL
O=Cc1cc(I)c(O)c(I)c1	H37Rv	-	MIC	-	-	50 µg/mL
CO[C@H]1/C=C/O[C@@]2(C)Oc3c(C)c(O)c4c(O)c(c(/C=N/N5CCN(C6CCCC6)CC5)c(O)c4c3C2=O)NC(=O)/C(C)=C\C=C\[C@H](C)[C@H](O)[C@@H](C)[C@@H](O)[C@@H](C)[C@H](O)[C@@H]1C	Isolate 910328 rifampicin-resistant	-	MIC	-	-	>32 µg/mL
O=C1CC(c2ccccc2)Oc2ccc(Br)cc21	H37Rv	-	EC50	-	-	>12.5 µg/mL
Cl.N#CCC(=O)c1cccc(N)c1	H37Rv	-	MIC	-	-	>100 µg/mL
Cc1onc(-c2ccccc2Cl)c1C(=O)N[C@@H]1C(=O)N2[C@@H]1SC(C)(C)[C@@H]2C(=O)O	H37Rv	-	Mean MIC	-	-	256 µg/mL
CO[C@H]1C[C@@H]2\C=C(C)/C=C/C=C\C(=O)N[C@H](c3ccccc3)C/C=C/CC[C@H](O)CC(=O)C2=C1O	H37Rv	BACTEC	MIC	-	-	3.13 µg/mL
CCCCC(CC)CN1CN(CC(CC)CCCC)CC(C)(NCCNCCc2ccc(O)c(O)c2)C1	-	-	MIC	-	-	12.5 µM
CO[C@H]1/C=C/O[C@@]2(C)Oc3c(C)c(O)c4c(=O)c(c5oc6cc(N7CCN(C(C)C)CC7)cc(=O)c6nc5c4c3=C2O)NC(=O)/C(C)=C\C=C\[C@H](C)[C@H](O)[C@@H](C)[C@@H](O)[C@@H](C)[C@H](OC(C)=O)[C@@H]1C	27 (rifampin-resistant)	-	MBC	-	-	0.2 µg/mL
CC(=O)Nc1ccc(C(=O)N/N=C/c2ccccc2)cc1	-	-	MIC	-	-	>40 µg/mL
CC(O)c1ccccc1	H37Rv	-	MIC	-	-	100 µg/mL
COc1ccc(CNCCNCCc2ccccc2F)cc1OC	-	-	MIC	-	-	25 µM
O=c1cc[nH]c2ccc([N+](=O)[O-])cc12	H37Rv	-	MIC	-	-	>100 µg/mL
O=C1c2ccccc2OC(c2ccccc2)C1I	H37Rv	-	EC50	-	-	>12.5 µg/mL
NC[C@H]1O[C@H](O[C@H]2[C@H](O)[C@@H](O[C@H]3O[C@H](CO)[C@@H](O)[C@H](N)[C@H]3O)[C@H](N)C[C@@H]2N)[C@H](O)[C@@H](O)[C@@H]1O	TN1521 (BU)	-	MIC	-	-	>256 µg/mL
O=C1C=C(Nc2cnccn2)c2ccccc2C1=O	H37Rv	resazurin	MIC bound	-	-	<6.25 µg/mL
CCC(=O)c1cc(N)c(OC)cc1OC.Cl	H37Rv	-	MIC	-	-	>100 µg/mL
COc1ccc(CNCCNC(C)c2cccc3ccccc23)cc1OC	-	-	MIC	-	-	50 µM
Cl.Cl.O=C(Nc1ccc(C2=NCCN2)cc1)c1cccc(NC(=S)Nc2ccc(C3=NCCN3)cc2)c1	H37Rv	BACTEC	MIC	-	-	>12.5 µg/mL
CCCCCC(=O)c1ccccc1	H37Rv	-	MIC	-	-	>100 µg/mL
CC(Cc1c[nH]c2ccccc12)NCCNCC(c1ccccc1)c1ccccc1	-	-	MIC	-	-	6.25 µM
CO[C@H]1/C=C/O[C@@]2(C)Oc3c(C)c(O)c4c(O)c(c(/C=N/N5CCN(C/C=C/c6ccccc6)CC5)c(O)c4c3C2=O)NC(=O)/C(C)=C\C=C\[C@H](C)[C@H](O)[C@@H](C)[C@@H](O)[C@@H](C)[C@H](OC(C)=O)[C@@H]1C	33 (rifampin-resistant)	-	MIC	-	-	0.1 µg/mL
O=c1[nH][nH]c(=O)c2c([N+](=O)[O-])cccc12	-	-	MIC	-	-	>200 µg/mL
COc1ccc(CNCCNCCc2ccccc2F)cc1OC	-	-	MIC	-	-	25 µM
CO[C@H]1/C=C/O[C@@]2(C)Oc3c(C)c(O)c4c(O)c(c5c(c4c3C2=O)NC2(CCN(CC(C)C)CC2)N=5)=NC(=O)/C(C)=C\C=C\[C@H](C)[C@H](O)[C@@H](C)[C@@H](O)[C@@H](C)[C@H](OC(C)=O)[C@@H]1C	Strain 79 (H526L)	-	MIC	-	-	0.063 µg/mL
Cc1cc(C)c(C(=O)C[n+]2ccccc2)cc1C.[Cl-]	H37Rv	-	MIC	-	-	50 µg/mL
CC(=O)Nc1ccc(S(=O)(=O)NNC(=O)c2ccccc2)cc1	-	-	MIC	-	-	>200 µg/mL
CCN(CC)CC1=CC(=Nc2cc(OC)cc3cccnc23)C=CC1=O	H37Rv	BACTEC	MIC bound	-	-	>12.5 µg/mL
CCCCNc1cccc2c1C(=O)c1cccc(NCCCC)c1C2=O	H37Rv	-	MIC	-	-	>100 µg/mL
C[C@@H]1CC[C@@]2(OC1)O[C@H]1C[C@H]3[C@@H]4CC[C@H]5C[C@@H](O)CC[C@]5(C)[C@H]4CC[C@]3(C)[C@H]1[C@@H]2C	H37Rv	BACTEC	MIC bound	-	-	>12.8 µg/mL
CC(=O)Nc1ccc(C(=O)NNC(=O)c2ccc(NC(C)=O)cc2)cc1	-	-	MIC	-	-	100–200 µg/mL
O=C(O)c1cc(=O)[nH]c(=O)[nH]1	H37Rv	BACTEC	MIC	-	-	≥128 µg/mL
C=CC(O)CSCCCCCCCCCCCCCCCC	H37Rv	-	MIC	-	-	>100 µg/mL
O=[N+]([O-])c1cc(Cl)c2[nH]c3c(Cl)cc([N+](=O)[O-])cc3c2c1	H37Rv	BACTEC	MIC bound	-	-	≤12.5 µg/mL
CCCCCCCCCCCNCCNCCc1ccccc1OC	-	-	MIC	-	-	25 µM
C[C@@H]1[C@H]2C[C@@H](C[C@H]1NCCNC[C@@H]1CC[C@H]3C[C@@H]1C3(C)C)C2(C)C	-	-	MIC	-	-	3.13 µM
C[C@H]1COc2c(N3CCN(C)CC3)c(F)cc3c(=O)c(C(=O)O)cn1c23	4R	-	MIC	-	-	0.5 µg/mL
CCC(C(N)=O)C(N)=O	H37Rv	-	MIC	-	-	>100 µg/mL
O=C(c1cccc(Cl)c1)c1c(O)c2ccccc2oc1=O	H37Rv	BACTEC	inhibition	-	12.5 µg/mL	14%
O=C1CC(c2ccccc2)Oc2cc(Cl)ccc21	H37Rv	-	EC50	-	-	>12.5 µg/mL
CCN(CC)c1ccc(/C=N/Nc2cc(C)nc3ccc(C4CCCCC4)cc23)cc1	H37Rv	-	MIC	VERO	-	1.56 µg/mL
CN[C@@H]1[C@H](O[C@H]2[C@H](O[C@H]3[C@H](O)[C@@H](O)[C@H](N=C(N)N)[C@@H](O)[C@@H]3N=C(N)N)O[C@@H](C)[C@]2(O)C=O)O[C@@H](CO)[C@H](O)[C@H]1O	H37Ra	-	Mean MIC	-	-	0.94 µg/mL
COc1ccc2ccccc2c1/C=N/Nc1ccnc2cc(Cl)ccc12	H37Rv	-	MIC	VERO	-	6.25 µg/mL
O=C1CCCC1	H37Rv	-	MIC	-	-	100 µg/mL
O=C(NNC(=O)c1ccccc1Cl)c1ccccc1Cl	-	-	MIC	-	-	>200 µg/mL
NC(=O)c1cnccn1	Isolate 10800 monodrug-resistant	-	MIC	-	-	>300 µg/mL
CCc1[nH]c2ccccc2c1N1C(=O)CC2(CCN(Cc3ccccc3)CC2)CC1=O	H37Rv	resazurin	MIC bound	-	-	>6.25 µg/mL
CCc1ccc(C(=O)c2ccccc2)cc1	H37Rv	-	MIC	-	-	>100 µg/mL
C=C(C)[C@H]1Cc2c(ccc3c2O[C@@H]2COc4cc(OC)c(OC)cc4[C@@H]2C3=O)O1	H37Rv	BACTEC	MIC bound	-	-	>128 µg/mL
O=c1oc2ccc(Cl)cc2c(=O)n1-c1ccc(Br)cc1	CNCTC MY331/88	-	MIC	-	-	4 µM
O=C1CC(c2ccccc2)Oc2ccc(I)cc21	H37Rv	-	inhibition	-	12.5 µg/mL	27%
c1ccc(CCCCNCCNCCc2ccccc2)cc1	-	-	MIC	-	-	50 µM
Oc1cc(NCc2ccccc2)cc(NCc2ccccc2)c1	H37Rv	-	MIC	-	-	>100 µg/mL
COc1ccc(/C=N/Nc2ccnc3ccc(C4CCCCC4)cc23)c2ccccc12	H37Rv	-	inhibition	VERO	12.5 µg/mL	100%
CCOC(=O)c1[nH]c(C)c(C(C)=O)c1C	H37Rv	-	MIC	-	-	100 µg/mL
CCOC(=O)c1ccc(-n2c(=O)oc3ccc(F)cc3c2=O)cc1	CNCTC MY331/88	-	MIC	-	-	16 µM
CCCCC(CC)CN1CN(CC(CC)CCCC)CC(C)(NCCNCc2ccccc2)C1	-	-	MIC	-	-	25 µM
O=C(N/N=C/c1ccc(O)cc1O)c1ccncc1	H37Rv	BACTEC	MIC	-	-	1 µg/mL
CCCCC(CC)CN1CN(CC(CC)CCCC)CC(C)(NCCNCCCO)C1	-	-	MIC	-	-	12.5 µM
O=C(Nc1ccc(C2=NCC(O)CN2)cc1)c1ccc(C(=O)Nc2ccc(C3=NCC(O)CN3)cc2)cc1	H37Rv	BACTEC	inhibition	-	12.5 µg/mL	99%
COC(=O)c1cc(-c2ccccc2)nc2cc3c(cc12)OCO3	H37Rv	-	MIC	-	-	>100 µg/mL
OCCNc1nn2ccnc2c2ccccc12	H37Rv	BACTEC	inhibition	-	12.5 µg/mL	0%
c1ccc(C(CCNCCN[C@H]2C[C@@H]3CC[C@H]2C3)c2ccccc2)cc1	-	-	MIC	-	-	3.13 µM
CCN(CC)CCSCCNc1ccc2ccccc2n1.Cl	H37Rv	-	MIC	-	-	>100 µg/mL
Cc1c(NC(=S)Nc2ccc([N+](=O)[O-])cc2)c(=O)n(-c2ccccc2)n1C	H37Rv	resazurin	inhibition	-	6.25 µg/mL	9%
c1ccc(CCCc2ccccn2)cc1	H37Rv	-	MIC	-	-	100 µg/mL
COc1ccc(CCc2cc(OC)c3ccccc3n2)cc1OC	MT2	-	MIC	-	-	77 µg/mL

Again, the opening 11 rows:

compound	strain or isolate	method	measure	cells	tested at	result
CN(C(N)=S)c1cccc2ccccc12	H37Rv	-	MIC	-	-	100 µg/mL
COC(=O)[C@]1(C)CCC[C@]2(C)c3ccc(C(C)C)cc3C(=O)[C@@H](Br)[C@@]12C	H37Rv	BACTEC	MIC bound	-	-	>12.5 µg/mL
O=C(/C=C/c1ccccc1I)c1ccccc1O	H37Rv	-	EC50	-	-	>12.5 µg/mL
O=C(O)c1cccc(O)c1	H37Rv	-	MIC	-	-	>100 µg/mL
Nc1ncnc2c1ncn2C1OC(C(O)CO)C(O)C1N	H37Rv	BACTEC	inhibition	-	12.5 µg/mL	6%
NCC[C@H](O)C(=O)N[C@@H]1C[C@H](N)[C@@H](O[C@H]2O[C@H](CN)[C@@H](O)[C@H](O)[C@H]2O)[C@H](O)[C@H]1O[C@H]1O[C@H](CO)[C@@H](O)[C@H](N)[C@H]1O	7S	-	MIC	-	-	2.5 µg/mL
CC(=O)Oc1ccc([C@@H]2CC(=O)c3c(cc(OC(C)=O)c(-c4c(OC(C)=O)cc5c(c4OC(C)=O)C(=O)C[C@@H](c4ccc(OC(C)=O)cc4)O5)c3OC(C)=O)O2)cc1	H37Rv	-	EC50	-	-	>12.5 µg/mL
Cc1ccc(-n2c(=O)oc3ccc(F)cc3c2=O)cc1	CNCTC MY331/88	-	MIC	-	-	16 µM
CCC(C)NC(=O)C1C2CC3OC(=O)C1C3C2	H37Rv	BACTEC	MIC bound	-	-	>12.5 µg/mL
CCCCC(CC)CN1CN(CC(CC)CCCC)CC(C)(NCCNCc2ccco2)C1	-	-	MIC	-	-	12.5 µM
CCN(CC)C(=S)S	H37Rv	-	MIC	-	-	50 µg/mL